The subject of the assay is T2 cells. Description: Cytotoxicity test (51Cr release) of hdm2 81-88-specific CTL on peptide-loaded T2 target cells (peptide titration, peptide specificity). The assay is classed as cell-based, human. The following applies: CTL lines A2 81 and CD8×A2 K^b 81; 4-hour test.

Turning to “Flu M1 58-66: peptide 58-66 of the A/PR/8/34 influenza virus matrix protein M1, positive control [reference compound]”, the “lysis of peptide-loaded T2 cells by both hdm2 81-88-specific CTL lines” value is on record as “not recognized”.

Source of the values: US20040170653A1, “Tumour peptide antigen produced from human mdm2 proto-oncogene” (priority 2001, published 2004).
